## Share of PSTVd loop 15 variants by leaf site

The measurements come from Wu et al. 2024 (doi:10.1371/journal.ppat.1012142).

Region: loop 15 of PSTVd (intermediate strain), upper and lower strand joined, each 5' to 3', the first 7 letters being the upper strand, closing pairs included. Wild type: GGAAACCGCUACUAC. Varied positions (N): GGAAACCGNNNNNNC.

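Three N. benthamiana plants were inoculated with the whole mutant pool. Samples came from the inoculated region at 5 days, the leaf margin at 10 and upper systemic leaves at 12.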

Numbers give reads per thousand; 0 = not seen among the reads, higher = more abundant. Each site shows the three plants. "Pool" is the share in the plasmid pool used as inoculum, on the same scale. The inoculated region was read from the minus strand, the other sites from the plus strand. IR is the inoculated region, LM the leaf margin, Sys the systemic leaves.

sequence | pool | IR | LM | Sys
GGAAACCGCUGCAGC | 0.256 | 0.0655 0.0964 0.133 | 0 0 0 | 0 0 0
GGAAACCGUGCCUCC | 0.256 | 0.0819 0.0643 0.0381 | 0 0 0.0200 | 0 0 0
GGAAACCGCACAAAC | 0.160 | 0.0491 0.0643 0.171 | 0.0162 0.0445 0 | 0 0 0
GGAAACCGCUAACGC | 0.304 | 0.115 0.0482 0.114 | 0 0 0.0200 | 0 0 0
GGAAACCGGACCUGC | 0.128 | 0.0819 0.193 0.0762 | 0 0.0223 0 | 0 0 0
GGAAACCGUAUGGGC | 0.256 | 0.180 0.177 0.0571 | 0 0.0223 0 | 0 0 0
GGAAACCGCCCCCAC | 0.288 | 0.0983 0.0803 0.0762 | 0 0 0.0401 | 0.0161 0 0
GGAAACCGUCUAAGC | 0.272 | 0.115 0.161 0.0571 | 0 0 0.0200 | 0.0161 0 0
GGAAACCGCUGCCCC | 0.272 | 0.0655 0.0803 0.114 | 0 0 0.0200 | 0 0 0
GGAAACCGUGAUACC | 0.224 | 0.164 0.129 0.171 | 0 0 0.0200 | 0 0 0
GGAAACCGAUGCAUC | 0.208 | 0.115 0.0482 0.0381 | 0 0 0.0200 | 0 0 0
GGAAACCGACAAGCC | 0.224 | 0.0983 0.145 0.0190 | 0.0162 0.0445 0 | 0 0 0
GGAAACCGCCGGGUC | 0.192 | 0.0983 0.386 0.381 | 0.146 0.0445 0.140 | 0.0966 0 0
GGAAACCGUUGGAGC | 0.288 | 0.0655 0.0964 0.133 | 0 0 0.0200 | 0 0 0
GGAAACCGGCUUGCC | 0.240 | 0.246 0.193 0.133 | 0 0 0.0200 | 0.0161 0 0
GGAAACCGCUUAUGC | 0.256 | 0.197 0.225 0.209 | 0 0.0223 0.0200 | 0.0161 0 0
GGAAACCGCGCCCCC | 0.224 | 0.197 0.112 0.0190 | 0 0.0223 0 | 0 0 0
GGAAACCGUUCCCUC | 0.160 | 0.115 0 0.171 | 0 0 0 | 0 0 0
GGAAACCGAGCAAAC | 0.288 | 0.147 0.225 0.267 | 0 0 0.0401 | 0.0161 0 0.0228
GGAAACCGAUCACGC | 0.208 | 0.262 0.112 0.419 | 0 0 0 | 0.0322 0.0151 0
GGAAACCGCUCCGGC | 0.144 | 0.0819 0.0964 0.0762 | 0 0 0.0200 | 0.0322 0 0
GGAAACCGUUAGUAC | 0.352 | 0.229 0.289 0.305 | 0.0647 0.0891 0.0801 | 0.0644 0 0.0228
GGAAACCGCUGGAAC | 0.352 | 0.0655 0.0643 0.0571 | 0 0.0223 0.0801 | 0 0 0
GGAAACCGGGACCGC | 0.272 | 0.147 0.129 0.0762 | 0 0 0.0401 | 0 0 0.0228
GGAAACCGCGUGAGC | 0.224 | 0.0983 0.129 0.248 | 0 0 0 | 0.0161 0 0
GGAAACCGUAAUCCC | 0.208 | 0.0328 0.0321 0.0762 | 0.0162 0 0 | 0 0 0
GGAAACCGCCUCACC | 0.256 | 0.197 0.112 0.209 | 0 0 0.0601 | 0 0 0
GGAAACCGUCUGUUC | 0.144 | 0.229 0.209 0.286 | 0.146 0.0445 0.160 | 0.0483 0.136 0.0912
GGAAACCGAGCGAUC | 0.176 | 0.786 0.883 0.724 | 0.0970 2.32 0.200 | 0.0161 0 0
GGAAACCGUUCGUGC | 0.256 | 0.246 0.402 0.457 | 0.113 0.0891 0.160 | 0.0644 0.0454 0.0456
GGAAACCGGGCUGCC | 0.320 | 0.0655 0.0321 0.0190 | 0 0.0223 0 | 0 0 0
GGAAACCGCGUCGUC | 0.192 | 0.131 0.0482 0.152 | 0 0.0445 0.0601 | 0 0 0
GGAAACCGGAACCUC | 0.208 | 0.0983 0.129 0.0952 | 0 0 0.0401 | 0 0 0
GGAAACCGGGAACGC | 0.144 | 0.131 0.0643 0.0571 | 0 0 0.0601 | 0 0 0
GGAAACCGCUGGUGC | 0.144 | 0.278 0.402 0.438 | 0.129 0.111 0.0200 | 0.0644 0 0
GGAAACCGCGUCAUC | 0.128 | 0.180 0.112 0.0762 | 0 0 0.0200 | 0 0 0
GGAAACCGUUGUGAC | 0.176 | 0.0655 0.129 0.114 | 0 0.0223 0.0200 | 0 0 0
GGAAACCGCUACGAC | 5.23 | 3.91 2.76 3.03 | 4.04 3.87 5.01 | 4.33 3.93 0
GGAAACCGCAGUGAC | 0.320 | 0.0655 0.0643 0.133 | 0 0 0.0200 | 0 0 0
GGAAACCGACCAACC | 0.0960 | 0.0819 0.0803 0.0762 | 0.0162 0 0.0200 | 0 0 0
GGAAACCGGGAAGCC | 0.272 | 0.0819 0.0803 0.0381 | 0 0 0.0200 | 0 0 0
GGAAACCGGCGCCGC | 0.288 | 0.0819 0.0964 0.0381 | 0 0 0.0200 | 0.0161 0 0
GGAAACCGGGUUCAC | 0.176 | 0.0983 0.112 0.171 | 0 0 0 | 0.0322 0 0
GGAAACCGCAAUGAC | 0.288 | 0.147 0.0161 0.171 | 0 0.0223 0.0401 | 0 0 0
GGAAACCGGGAAUUC | 0.240 | 0.491 0.402 0.457 | 0.113 0.111 0.301 | 0.0322 0 0
GGAAACCGAGAGCCC | 0.144 | 0.0983 0.0964 0.0571 | 0 0 0.0200 | 0 0 0
GGAAACCGGUGAAAC | 0.272 | 0.0655 0.0643 0.0952 | 0.0162 0 0.0200 | 0 0 0
GGAAACCGUUACAUC | 0.288 | 0.278 0.353 0.362 | 0.129 0.0445 0.220 | 0.0483 0.0756 0

The first 5 entries again:

- GGAAACCGCUGCAGC (pool 0.256) -> IR 0.0655 0.0964 0.133; LM 0 0 0; Sys 0 0 0
- GGAAACCGUGCCUCC (pool 0.256) -> IR 0.0819 0.0643 0.0381; LM 0 0 0.0200; Sys 0 0 0
- GGAAACCGCACAAAC (pool 0.160) -> IR 0.0491 0.0643 0.171; LM 0.0162 0.0445 0; Sys 0 0 0
- GGAAACCGCUAACGC (pool 0.304) -> IR 0.115 0.0482 0.114; LM 0 0 0.0200; Sys 0 0 0
- GGAAACCGGACCUGC (pool 0.128) -> IR 0.0819 0.193 0.0762; LM 0 0.0223 0; Sys 0 0 0

Sequences that differ at fixed positions probably stem from PCR or sequencing errors, and defective variants can be carried along by functional ones. Wild type was 33.9 per thousand in the pool and the most common sequence in every sample (inoculated region 202, 200, 159; leaf margin 724, 746, 710; systemic leaves 856, 883, 880). Samples held 43,870 to 66,106 reads, so the smallest values rest on one or two reads.